Measured values from several laboratories, pooled; numbers as filed in NIAID ChemDB.

Common to all: tests in culture; species: HIV-1; read-out: inhibition

Inhibition is in % at the dose shown (toxicity tests: loss of growth or viability). An empty or dashed field is not shown. Conditions beyond the fields shown may differ between rows.

smiles,method,mutations,cell line,tested at,strain or isolate,setting,result
NCC(=O)NCC(=O)NCC=O,p24,,H9,250 µg/mL,IIIB,,0%
NC12CC3CC(CC(C3)C1)C2,,,MT-4,1 µg/mL,LAV,,60%
NCC(=O)N1CCC[C@H]1C(=O)NCC=O,syncytia,,H9,25 µg/mL,IIIB,,80%
CCCC(=O)O[C@H]1CN2CC[C@H](O)[C@@H]2[C@@H](O)[C@@H]1O,,,H9,40 µM,RF,,99%
CC[C@@]1(O)C(=O)OCc2c1cc1n(c2=O)Cc2cc3ccccc3nc2-1,RT activity,,H9,0.05 µM,IIIB,,96%
Cc1ccc(C(=O)OC[C@H]2O[C@H](n3cc(-c4ccc(-c5ccccc5)s4)c(N)nc3=O)C[C@@H]2OC(=O)c2ccc(C)cc2)cc1,RT activity,,H9,1 µg/mL,IIIB,,35%
C=C(C)[C@@H]1CC[C@]2(C(=O)NCCCCCCCC(=O)N[C@@H](CC(C)C)[C@H](O)CC(=O)O)CC[C@]3(C)[C@H](CC[C@@H]4[C@@]5(C)CC[C@H](O)C(C)(C)[C@@H]5CC[C@]43C)[C@@H]12,RT activity,,PBMC,2.65 µM,QZ4734,,90%
NC(N)=NCCC[C@@H](C=O)NC(=O)CNC(=O)[C@@H]1CCCN1C(=O)CNC(=O)[C@@H](N)CCCN=C(N)N,syncytia,,H9,25 µg/mL,IIIB,,0%
COc1ccc2c(c1)N(C[C@H](C)CN(C)C)c1ccccc1S2,,,MT-4,10 µg/mL,LAV,,0%
OCCN1CCN(CC/C=C2\c3ccccc3Sc3ccc(C(F)(F)F)cc32)CC1,RT activity,,MOLT-3,10 µg/mL,IIIB,,67%
OC[C@@H]1[C@@H](O)[C@H](O)[C@H]2[C@@H](O)CCN21,syncytia,,JM,1000 µM,GB8,,0%
CCCCCCc1ccsc1-c1cn([C@H]2C[C@H](O)[C@@H](CO)O2)c(=O)[nH]c1=O,RT activity,,H9,10 µg/mL,IIIB,,35%
CC(=O)N1CCC(C(=O)N(CCCN2CCC(Cc3ccc(C(N)=O)cc3)CC2)c2ccc(C)c(Cl)c2)CC1,p24,,PBMC,0.005 µM,CTV R5 clinical isolate,,90%
Nc1nc(=O)n([C@@H]2C[C@H](O)[C@@H](CO)O2)cc1-c1ccc[se]1,RT activity,,H9,10 µg/mL,IIIB,,5%
O=C(O)c1cc(O)c(O)c(O)c1,p24,,MOLT-3,10 µg/mL,IIIB,,36%
CCN1CCCC(OC(=O)C(c2ccccc2)c2ccccc2)C1,,,MT-4,100 µg/mL,LAV,,0%
O=S(=O)(O)c1cc(N=C=S)ccc1CCc1ccc(N=C=S)cc1S(=O)(=O)O,syncytia,,JM,25 µg/mL,GB8,,93%
Cc1cn([C@H]2C[C@H](N=[N+]=[N-])[C@@H](CO)O2)c(=O)[nH]c1=O,syncytia,,HT4 + HT4-6C,0.0316 µM,LAV-1,,72%
O[C@H]1[C@H](O)[C@@H](O)CN2CC[C@H](O)[C@H]12,syncytia,,JM,250 µM,GB8,,98.9%
COc1ccc(CN[C@@H](C(=O)N[C@H](C(=O)NCc2nc3ccccc3[nH]2)C(C)C)[C@H](O)[C@H](Cc2ccccc2)NC(=O)[C@@H](NC(=O)OCc2ccccc2)C(C)(C)C)cc1,p24,,Primary T4 lymphocytes + T4,0.015 µM,K31,clinical isolate,90%
c1cc(CN2CCCNCCNCCCNCC2)ccc1CN1CCCNCCNCCCNCC1,p24,,PBMC,0.5 µM,CM235 CLADE E R5,,22%
Cc1ncc(CSSCc2cnc(C)c(O)c2CO)c(CO)c1O,,,MT-4,100 µg/mL,LAV,,0%
Cn1cccc1-c1cn([C@H]2C[C@H](O)[C@@H](CO)O2)c(=O)nc1N,RT activity,,H9,10 µg/mL,IIIB,,8%
Nc1ncnc2c1ncn2[C@@H]1C[C@](F)(CO)[C@H]1CO,cytopathic effect,,MT-4,10 µM,IIIB,,80%
Cc1cn([C@H]2CC[C@@H](CO)O2)c(=O)[nH]c1=O,RT activity,,PBMC,1 µM,LAV,,70.9%
COc1ccc(OC[C@H]2CNCC[C@@H]2c2ccccc2)cc1,p24,,MOLT-3,4 µg/mL,IIIB,,0%
Nc1ccn([C@H]2CC[C@@H](CO)O2)c(=O)n1,RT activity,,PBMC,0.1 µM,LAV,,91.6%
C(=C\c1ccccc1)/CN1CCN(C(c2ccccc2)c2ccccc2)CC1,,,MT-4,100 µg/mL,LAV,,0%
Nc1ccn([C@H]2CC[C@@H](CO)O2)c(=O)n1,syncytia,,HT4 + HT4-6C,0.01 µM,LAV-1,,55%
COc1cc(C[C@H](C)[C@H](C)Cc2ccc(O)c(O)c2)ccc1O,p24,,PBMC,30 µg/mL,WM,,87%
O=C(OCC1(COC(=O)c2cccnc2)CCCC(COC(=O)c2cccnc2)(COC(=O)c2cccnc2)C1O)c1cccnc1,,,MT-4,100 µg/mL,LAV,,0%
COC(=O)C(N)CC(=O)COC(=O)[C@H]1O[C@H](O[C@H]2CC[C@]3(C)[C@H]4C(=O)C=C5[C@@H]6C[C@@](C)(C(=O)O)CC[C@]6(C)CC[C@@]5(C)[C@]4(C)CC[C@H]3C2(C)C)[C@H](O[C@@H]2O[C@H](C(=O)O)[C@@H](O)[C@H](O)[C@H]2O)[C@@H](O)[C@@H]1O.S,,,MT-4,500 µg/mL,,,97.27%
Fc1ccc([C@@H]2CCNC[C@H]2COc2ccc3c(c2)OCCO3)cc1,p24,,MOLT-3,4 µg/mL,IIIB,,37%
CN1CCN(CCCN2c3ccccc3Sc3ccc(Cl)cc32)CC1,,,MT-4,100 µg/mL,LAV,,99.9%
O=Nc1c(-c2c(O)[nH]c3ccccc23)[nH]c2ccccc12,p24,,U1,4 µM,,,58%
O=C(O)P(=O)(O)O,p24 / ELISA,,H9,50 µg/mL,,,76%
COc1ccc(OC[C@H]2CNCC[C@@H]2c2ccc(F)cc2)cc1,syncytia,,MOLT-3,4 µg/mL,IIIB,,5%
NC(N)=NCCC[C@H](NC(=O)[C@@H](N)Cc1ccc(O)cc1)C(=O)NCC(=O)N1CCC[C@H]1C(=O)NCC=O,p24,,H9,250 µg/mL,IIIB,,97.9%
Nc1nc(=O)n([C@@H]2C[C@H](O)[C@@H](CO)O2)cc1-c1cccnc1,RT activity,,H9,10 µg/mL,IIIB,,25%
CN[C@@H](CS)C(=O)O,,,MT-4,100 µg/mL,LAV,,0%
OC[C@@H]1[C@@H](O)[C@H](O)[C@H]2[C@H](O)CCN21,syncytia,,JM,500 µM,GB8,,60%
Nc1nc(=O)n([C@@H]2C[C@H](O)[C@@H](CO)O2)cc1-c1ccsc1,RT activity,,H9,10 µg/mL,IIIB,,10%
CCc1cc(NCc2nc3c(Cl)ccc(Cl)c3o2)c(=O)[nH]c1C,antigen,RT-P236L,MT-4,0.01 µM,MFE30(RT-P236L),,100%
COc1ccc(OC[C@@H]2CN(C)CC[C@H]2c2ccccc2)cc1,p24,,MOLT-3,10 µg/mL,IIIB,,48%
Cc1cn([C@H]2C[C@H](N=[N+]=[N-])[C@@H](CO)O2)c(=O)[nH]c1=O,RT activity,,H9,50 µg/mL,,,88%
CC(C)[C@H](NC(=O)c1ccccn1)C(=O)N[C@@H](Cc1ccccc1)[C@H](O)[C@H](O)[C@H](Cc1ccccc1)NC(=O)[C@@H](NC(=O)c1ccccn1)C(C)C,p24,PR-L10F G48V,MT-4,30 µM,NL4-3,,90%
CN(C)CCC=C1c2ccccc2CCc2ccccc21,syncytia,,MOLT-3,10 µg/mL,IIIB,,19%
CN=C1CN=C(c2ccc[nH]2)c2cc(Cl)ccc2N1,antigen,,H9,3 µM,IIIB,,90%
CC(C)=CCOc1cc(NC(=S)c2ccoc2C)ccc1Cl,p24,,PBMC,0.01219 µg/mL,92US657 Clinical isolate,,90%
CCCCCCCCCCCCCCCCOC[C@H](CCl)OP(=O)(O)OCC[N+](C)(C)C,RT activity,,H9,1 µM,IIIB,,76%
Nc1nc(=O)n([C@H]2C[C@H](O)[C@@H](CO)O2)cc1-c1ccccc1,RT activity,,H9,10 µg/mL,IIIB,,35%

A second listing of 5 rows from above:

| smiles | method | mutations | cell line | tested at | strain or isolate | setting | result |
|---|---|---|---|---|---|---|---|
| COc1ccc(CN[C@@H](C(=O)N[C@H](C(=O)NCc2nc3ccccc3[nH]2)C(C)C)[C@H](O)[C@H](Cc2ccccc2)NC(=O)[C@@H](NC(=O)OCc2ccccc2)C(C)(C)C)cc1 | p24 |  | Primary T4 lymphocytes + T4 | 0.015 µM | K31 | clinical isolate | 90% |
| NCC(=O)NCC(=O)NCC=O | p24 |  | H9 | 250 µg/mL | IIIB |  | 0% |
| CC(C)=CCOc1cc(NC(=S)c2ccoc2C)ccc1Cl | p24 |  | PBMC | 0.01219 µg/mL | 92US657 Clinical isolate |  | 90% |
| Cc1cn([C@H]2C[C@H](N=[N+]=[N-])[C@@H](CO)O2)c(=O)[nH]c1=O | RT activity |  | H9 | 50 µg/mL |  |  | 88% |
| C(=C\c1ccccc1)/CN1CCN(C(c2ccccc2)c2ccccc2)CC1 |  |  | MT-4 | 100 µg/mL | LAV |  | 0% |